Measured values from several laboratories, pooled; numbers as filed in NIAID ChemDB.

All rows: whole-cell or culture tests; agent: Mycobacterium tuberculosis

Neighbouring rows are from separate reports.

SMILES	cell line	strain or isolate	method	mutations	dose	measure	setting	value
O=c1[nH][nH]c(=O)c2ncccc12	-	-	-	-	-	MIC	-	>200 µg/mL
O=c1cc2oc3cc(O)c(O)cc3c(-c3ccccc3)c-2cc1O	-	H37Rv	BACTEC	-	-	MIC bound	-	>12.5 µg/mL
COc1cc2oc3cc(O)c(CCC(C)C)c(O)c3c(=O)c2c(CCC(C)C)c1OC	-	M16	resazurin	-	-	MIC	-	3.12 µg/mL
CC(=O)NC[C@H]1CN(c2ccc(N3CCN(c4ccc([N+](=O)[O-])s4)CC3)c(F)c2)C(=O)O1	-	V-3093	-	-	-	MIC	-	≤0.125 µg/mL
CC1COc2c(N3CCN(C)CC3)c(F)cc3c(=O)c(C(=O)O)cn1c23	-	099-3	-	-	-	MIC	-	1 µg/mL
C=CCOc1cc2oc3cc(O)c(CCC(C)C)c(O)c3c(=O)c2c(CCC(C)C)c1OC	-	M-3	resazurin	-	-	MIC	-	3.12 µg/mL
Cc1ccc(C2=NN(C(=O)c3ccncc3)C(O)(C(Cl)(Cl)Cl)C2)cc1	-	RGH103	-	-	-	MIC	-	>252 µM
N#Cc1ncc(C(Cl)Cl)nc1Cl	-	H37Rv	BACTEC	-	-	MIC bound	-	>12.5 µg/mL
COc1ccc(C(=O)/C=C/c2ccc(F)cc2Cl)cc1	-	H37Rv	MTT	-	-	MIC	7 d	32 µg/mL
O=[N+]([O-])C1=CN2C[C@H](OCc3ccc(OC(F)(F)F)cc3)COC2N1	-	Ddn-	broth dilution	-	-	MIC	-	>100 µM
S=c1[nH]nc(-c2ccccc2)o1	-	-	-	-	-	MIC	-	200 µg/mL
CO[C@H]1/C=C/O[C@@]2(C)Oc3c(C)c(O)c4c(O)c(c(/C=N/O)c(O)c4c3C2=O)NC(=O)/C(C)=C\C=C\[C@H](C)[C@H](O)[C@@H](C)[C@@H](O)[C@@H](C)[C@H](OC(C)=O)[C@@H]1C	-	H37Rv	-	-	-	EC50	-	5 µg/mL
OC(c1cc(-c2ccccc2)nc2c1ccc1ccccc12)C1CCCCN1	-	H37Rv	resazurin	-	6.25 µg/mL	inhibition	-	100%
CC[C@@H](CO)NCCN[C@@H](CC)CO	-	M8	resazurin	MDR	-	MIC	-	>8 µg/mL
Cc1ccc(C(=O)/C=C/c2ccccc2)c(F)c1	-	H37Rv	MTT	-	-	MIC	21 d	32 µg/mL
O=[N+]([O-])c1cnc(Sc2cncc[n+]2[O-])s1	-	H37Rv	resazurin	-	6.25 µg/mL	inhibition	-	100%
O=C(/C=C/c1ccc(F)cc1)c1ccc(F)cc1	-	H37Rv	resazurin	-	-	MIC	21 d	32 µg/mL
O=C(N/N=C/c1ccccc1)c1ccccc1	-	-	-	-	-	MIC	-	1 µg/mL
CC(C)CC1NC(=O)C(C(C)C)NC(=O)CC(C)COC(=O)C(CC(C)C)N(C)C(=O)C(C(C)C)NC(=O)C(C(C)C)OC1=O	-	H37Rv	BACTEC	-	-	MIC bound	-	>12.8 µg/mL
Cc1cccc(Cl)c1NC(=O)N1CCN(S(=O)(=O)c2cccc3cnccc23)CC1	-	SRMV2.6	resazurin	Inosine monophosphate dehydrogenase-resistant	-	MIC90	-	>250 µM
O=c1[nH]c(=O)c2nc3cc(Cl)ccc3nc2[nH]1	-	H37Rv	BACTEC	-	-	MIC bound	-	>12.5 µg/mL
CCCCCCC(O)C/C=C/CCCCCCCC(=O)NN	-	-	-	-	-	MIC	-	200 µg/mL
C[C@H]1COc2c(N3CCN(C)CC3)c(F)cc3c(=O)c(C(=O)O)cn1c23	-	001-011 (drug-resistant)	-	-	-	MIC	-	0.5 µg/mL
C[C@@H]([C@H]1CC[C@H]2[C@@H]3[C@@H]4O[C@@H]4[C@@]4(O)CC=CC(=O)[C@]4(C)[C@H]3C[C@H](O)[C@]12C)[C@H]1C[C@]2(C)O[C@]2(C)C(=O)O1	-	H37Rv	resazurin	-	-	MIC bound	-	>6.25 µg/mL
COc1cc(C(=O)N2CCN(S(=O)(=O)c3cccc4cnccc34)CC2)cc(OC)c1OC	-	SRMV2.6	resazurin	Inosine monophosphate dehydrogenase-resistant	-	MIC90	-	>125 µM
O=C(/C=C/c1ccc(F)cc1Cl)c1ccc(F)cc1	-	H37Rv	MTT	-	-	MIC	-	32 µg/mL
COc1cc(-c2[o+]c3cc(O)cc(O[C@@H]4O[C@H](CO)[C@@H](O)C(O)[C@H]4O)c3cc2O[C@H]2O[C@@H](CO)[C@H](O)[C@@H](O)[C@@H]2O)cc(OC)c1O	-	H37Rv	BACTEC	-	12.5 µg/mL	inhibition	-	18%
C=CCOc1cc2oc3cc(OCC=C)c(OC)c(CCC(C)C)c3c(=O)c2c(O)c1CCC(C)C	-	H37Ra	resazurin	-	-	MIC	-	>200 µg/mL
CC(NNC(=O)c1ccncc1)c1ccc(Cl)cc1Cl	Macrophages	Erdman	colony count	-	-	EC50	inside macrophages	<1.38 µg/mL
O=C(c1ccncc1)N1N=C(c2ccco2)CC1(O)C(Cl)(Cl)Cl	-	H37Rv	-	-	-	MIC	-	>268 µM
O=C(/C=C/c1ccc(F)cc1)c1ccc(O)cc1	-	H37Rv	resazurin	-	-	MIC	7 d	32 µg/mL
O=C(c1ccncc1)N1N=C(c2cccs2)CC1(O)C(F)(F)F	-	RGH101	-	-	-	MIC	-	>293 µM
O=C(c1ccccc1)N1CCN(S(=O)(=O)c2cccc3cnccc23)CC1	-	H37Rv	resazurin	-	-	MIC90	-	>100 µM
Cn1c2ccccc2n2c(=O)c(-c3ccc(O)cc3)nnc12	-	H37Rv	resazurin	-	-	MIC bound	-	>6.25 µg/mL
CCOc1cc2oc3cc(O)c(CCC(C)C)c(O)c3c(=O)c2c(CCC(C)C)c1OC	-	M8	resazurin	-	-	MIC	-	3.12 µg/mL
O=C(O)Cc1ccc(O)c2ncccc12	-	M 607	-	-	-	MIC50	-	0.5 µg/mL
COc1cc2c(C)c[n+]3cc4cc5c(OC)c(OC)ccc5cc4cc3c2cc1OC.O=C([O-])CS(=O)(=O)O	-	H37Rv	BACTEC	-	-	MIC	-	≥12.5 µg/mL
COc1ccc(C(=O)/C=C/c2ccccc2Cl)cc1	-	H37Rv	resazurin	-	-	MIC	21 d	32 µg/mL
O=C(CSc1nnc(-c2ccccn2)s1)N/N=c1/scc(-c2ccc(Br)cc2)n1-c1ccccc1	-	Clinical isolate 331	-	-	-	MIC	-	80 µg/mL
CO[C@H]1/C=C/O[C@@]2(C)Oc3c(C)c(O)c4c(O)c(c(/C=N/N=C(N)N)c(O)c4c3C2=O)NC(=O)/C(C)=C\C=C\[C@H](C)[C@H](O)[C@@H](C)[C@@H](O)[C@@H](C)[C@H](OC(C)=O)[C@@H]1C	-	H37Rv	-	-	-	EC50	-	5 µg/mL
CC1CN(S(=O)(=O)c2cccc3cnccc23)CCN1C(=O)Nc1ccc2c(c1)OCO2	-	SRMV2.6	resazurin	Inosine monophosphate dehydrogenase-resistant	-	MIC90	-	>100 µM
C=C(C)CC[C@H]1CN(c2ccn(N3CCOCC3)c2)C(=O)O1	-	ATCC 35828 (pyrazinamide-resistant)	-	-	-	MIC90	-	>100 µM
NNC(=O)c1ccncc1	-	H37Ra	resazurin	-	-	MIC	-	0.06 µg/mL
COc1cccc(CC(=O)N2CCN(S(=O)(=O)c3cccc4cnccc34)CC2)c1	-	SRMV2.6	resazurin	Inosine monophosphate dehydrogenase-resistant	-	MIC90	-	>250 µM
O=C(CSc1nnc(-c2ccccn2)s1)N/N=c1/scc(-c2ccccc2)n1-c1ccc([N+](=O)[O-])cc1	-	Clinical isolate 180	-	-	-	MIC	-	20 µg/mL
O=Cc1ccc(O)c2ncccc12	-	H37Rv	-	-	-	MIC50	-	>10 µg/mL
CN[C@@H]1[C@H](O[C@H]2[C@H](O[C@H]3[C@H](O)[C@@H](O)[C@H](N=C(N)N)[C@@H](O)[C@@H]3N=C(N)N)O[C@@H](C)[C@]2(O)C=O)O[C@@H](CO)[C@H](O)[C@H]1O	-	K139	-	-	-	MIC	-	≥512 µg/mL
O=C(NNCc1ccccc1F)c1ccncc1	-	Kanamycin-resistant	-	-	-	MIC	-	0.4 µg/mL
C1CN(CC2CCC(CN3CCOCC3)O2)CCO1	-	H37Rv	BACTEC	-	12.5 µg/mL	inhibition	-	-22%
Oc1cccc2cccnc12	-	M 607	-	-	-	MIC50	-	5–10 µg/mL
CO[C@H]1/C=C/O[C@@]2(C)Oc3c(C)c(O)c4c(O)c(c(/C=N/N5CCN(C6CCCC6)CC5)c(O)c4c3C2=O)NC(=O)/C(C)=C\C=C\[C@H](C)[C@H](O)[C@@H](C)[C@@H](O)[C@@H](C)[C@H](OC(C)=O)[C@@H]1C	-	1022	-	-	-	MIC	-	0.08 µg/mL
COc1ccc(/C=C/c2c(C(=O)O)oc3ccccc23)cc1	-	H37Rv	BACTEC	-	-	MIC bound	-	>12.5 µg/mL
CC(=O)c1c(OC(=O)c2ccccc2)cc2oc3cc(O)c(CCC(C)C)c(O)c3c(=O)c2c1CCC(C)C	-	H37Ra	resazurin	-	-	MIC	-	3.12 µg/mL
Cc1cccc(-c2cs/c(=N/NC(=O)CSc3nnc(-c4ccccn4)s3)n2-c2ccccc2)c1	-	Clinical isolate 331	-	-	-	MIC	-	40 µg/mL
COc1c(O)cc2oc3cc(O)c(CCC(C)C)c(O)c3c(=O)c2c1CCC(C)C	-	M11	resazurin	MDR	-	MIC	-	1.56 µg/mL
O=C(/C=C/c1ccccc1)c1ccc(O)cc1	-	H37Rv	resazurin	-	-	MIC	14 d	32 µg/mL
O=C(c1ccncc1)N1N=C(c2cccs2)CC1(O)C(Cl)(Cl)Cl	-	RGH103	-	-	-	MIC	-	>257 µM
CO[C@H]1/C=C/O[C@@]2(C)Oc3c(C)c(O)c4c(O)c(c(/C=N/N5C(C)CN(C)CC5C)c(O)c4c3C2=O)NC(=O)/C(C)=C\C=C\[C@H](C)[C@H](O)[C@@H](C)[C@@H](O)[C@@H](C)[C@H](OC(C)=O)[C@@H]1C	-	H37Rv	-	-	-	EC50	-	0.5 µg/mL
CCCCCOc1cc2oc3cc(O)c(CCC(C)C)c(O)c3c(=O)c2c(CCC(C)C)c1OC	-	H37Ra	resazurin	-	-	MIC	-	>200 µg/mL
C/C(=N\NC(=O)c1ccncc1)c1ccccc1	-	H37Rv (isoniazid-resistant)	-	-	-	MIC	-	>32 µg/mL
NNC(=O)COc1ccc(Cl)cc1Cl	-	-	-	-	-	MIC	-	200 µg/mL
O=C(NNCc1cccc(F)c1)c1ccncc1	-	H37Rv	-	-	-	MIC	-	0.39 µg/mL
Cc1ccc(O)c2ncccc12	-	M 607	-	-	-	MIC50	-	1–5 µg/mL
CC(C)(C)CC(C)(O)CN(CC(C)(O)CC(C)(C)C)C(=S)S	-	PZA-R	-	-	-	MIC	-	3.1 µg/mL
CO[C@H]1/C=C/O[C@@]2(C)Oc3c(C)c(O)c4c(O)c(c(/C=N/N(C)CCN(C)C)c(O)c4c3C2=O)NC(=O)/C(C)=C\C=C\[C@H](C)[C@H](O)[C@@H](C)[C@@H](O)[C@@H](C)[C@H](OC(C)=O)[C@@H]1C	-	H37Rv	-	-	-	EC50	-	0.5 µg/mL
C/C(=N\NC(=O)c1ccncc1)c1ccccc1F	-	Rifampicin-resistant	-	-	-	MBC	-	0.39 µg/mL
COc1ccc(NC(=S)c2ccoc2C)cc1CC(=O)OC(C)C	-	H37Rv	resazurin	-	6.25 µg/mL	inhibition	-	20%
O=C(/C=C/c1c(F)cccc1Cl)c1ccccc1	-	H37Rv	MTT	-	-	MIC	7 d	16 µg/mL
CCN(CC)CCC(=O)Oc1ccc(NC(=O)OC2CCC(OC(=O)Nc3ccc(OC(=O)CCN(CC)CC)cc3)CC2)cc1	-	H37Rv	resazurin	-	-	MIC bound	-	>6.25 µg/mL
C/C(=N\NC(=O)c1ccncc1)c1ccc(F)cc1	-	H37Rv	-	-	-	MBC	-	0.2 µg/mL
CCOC(=O)c1c(NC(=O)CCl)ssc1=S	-	H37Rv	BACTEC	-	-	MIC bound	-	>12.5 µg/mL
O=C(O)CCc1ccc(O)c2ncccc12	-	H37Rv	-	-	-	MIC50	-	0.1–0.5 µg/mL
[N-]=[N+]=NC1OC(=O)C(Cl)=C1N=P(c1ccccc1)(c1ccccc1)c1ccccc1	-	H37Rv	BACTEC	-	-	MIC bound	-	>12.5 µg/mL
O=C(CSc1nnc(-c2ccccn2)s1)N/N=c1/scc(-c2ccccc2Br)n1-c1ccccc1	-	H37Rv	-	-	-	MIC	-	80 µg/mL
O=C(NC(Cc1ccccc1)C(=O)NC(CO)C(=O)O)OCc1ccccc1	-	H37Rv	BACTEC	-	-	MIC bound	-	>12.8 µg/mL
CO[C@H]1/C=C/O[C@@]2(C)Oc3c(C)c(O)c4c(O)c(c(C=NN5CCCCC5)c(O)c4c3C2=O)NC(=O)/C(C)=C\C=C\[C@H](C)[C@H](O)[C@@H](C)[C@@H](O)[C@@H](C)[C@H](OC(C)=O)[C@@H]1C	-	H37Rv	-	-	-	EC50	-	0.05 µg/mL
CC(=O)Oc1ccc2ccc(=O)oc2c1OC(C)=O	-	H37Rv	BACTEC	-	-	MIC	-	≥12.5 µg/mL
Cc1ccccc1-c1cs/c(=N/NC(=O)CSc2nnc(-c3ccccn3)s2)n1-c1ccccc1	-	H37Rv	-	-	-	MIC	-	>80 µg/mL
CCOC(=O)CN1CCN(CC(=O)NC(c2ccccc2)c2ccc(Cl)cc2)CC1	-	H37Rv	BACTEC	-	12.8 µg/mL	inhibition	-	9%
O=C(CSc1nnc(-c2ccccn2)s1)N/N=c1/scc(-c2ccccc2)n1-c1ccc(Br)cc1	-	Clinical isolate 180	-	-	-	MIC	-	40 µg/mL

An empty or dashed field is not shown. Inhibition is in % at the dose shown (toxicity tests: loss of growth or viability). MIC50, MIC90 and the like: level of inhibition, or share of isolates inhibited. MIC bound: limit read from a one-dose screen. Two numbers with a dash give a range or band. ECn is the concentration giving n% inhibition of infection, replication or growth.